Data as given in PubChem BioAssay AID504761 (Drosophila RNAi Screening Center, 2011)
In all, the deposit lists about 22,000 reagents; shown is an unselected part of those that have a named target and a result. Over the whole deposit, 116 (0.52%) got an active call. 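Calls depend on retest data that are not deposited; infection was ranked per plate without normalising between plates; the unit of the infection score is not given.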 The raw values are shown without normalisation. A plus sign joins genes that one reagent is predicted to hit. Not given: the amount of reagent, the time to read-out.

- Test: 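Insect host genes that dengue virus relies on to spread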 (primary screen)
- Cell system: D.Mel-2 cells from Drosophila
- Reagents: long dsRNA against Drosophila genes
- Conditions: infection with dengue virus type 2; dose and infection time not stated
- Measured: 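Cells stained for dengue envelope protein and imaged; percent of infected cells per well on duplicate plates, ranked by infection, with stained nuclei counted for cell number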
- Scale: infection score: higher = more virus-infected cells; cell count: higher = more cells in the well
- Active means: 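Low infection ranks in the two replicates (chance level up to 0.065) followed by a retest with a 1.5-fold or larger significant decrease, p below 0.05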
- Meaning of the calls: active = confirmed: knock-down lowers infection; inactive = not picked or not confirmed

no.	predicted target	dsRNA	infection score, replicate 1	infection score, replicate 2	cell count, replicate 1	cell count, replicate 2	activity call
1	Cyp317a1 (Cytochrome P450 317a1)	DRSC07366	13.2	27.6	3743	5293	inactive
2	CG13813	DRSC10068	2.43	0.99	7043	6737	inactive
3	CG4511	DRSC15589	5.5	7.32	6729	1435	inactive
4	CG4511	DRSC28640	12.2		2239	392	inactive
5	Jhbp14 (Juvenile hormone binding protein 14)	DRSC01988	4.5	2	6310	6448	inactive
6	CG7990	DRSC19296	4.66	7.43	5885	5950	inactive
7	CG7990	DRSC23195	1.45	15.1	6001	6842	inactive
8	CG7990	DRSC26580	12.9	3.14	5958	5989	inactive
9	CG34135 + Nasp	DRSC16397	0.83	0.84	6240	6523	inactive
10	Tim17a2	DRSC12252	2.74	1.48	6635	6889	inactive
11	Tim17a2	DRSC23837	0.82	3.01	6620	6345	inactive
12	NetB (Netrin-B)	DRSC20262	3.82	6.48	6438	6185	inactive
13	NetB (Netrin-B)	DRSC26437	3.8	2.82	7009	6535	inactive
14	Blm (Bloom syndrome helicase)	DRSC16911	23.4	28.6	5755	5947	inactive
15	CG3679	DRSC19346	11	4.28	6508	6358	inactive
16	CG3679	DRSC25833	2.03	12.5	6220	5777	inactive
17	vrs (versager)	DRSC15832	1.83	12	6244	4523	inactive
18	vrs (versager)	DRSC26261	4.73	4.12	4888	5626	inactive
19	CG31210 (retired record) + CG4836	DRSC22066	13.6	3.21	5832	6083	inactive
20	CG14191	DRSC19546	6.12	5.88	5983	4882	inactive
21	CG14191	DRSC25317	5.72	3.09	6587	6278	inactive
22	CG14818	DRSC18548		3.76	389	772	inactive
23	CG14818	DRSC29496			390	342	inactive
24	Gbp1 (Growth-blocking peptide 1)	DRSC06592	17.4	14.6	5993	6293	inactive
25	CG7607	DRSC10889	4.84	6.26	6384	6244	inactive
26	CG12419 (retired record)	DRSC14513	10.5	6.71	6287	5989	inactive
27	CG12419 (retired record)	DRSC23888	16.6	17.9	5916	5902	inactive
28	VhaM9.7-d (Vacuolar H[+] ATPase M9.7 subunit d)	DRSC15028	7.36	3.28	6281	6821	inactive
29	CG14893	DRSC15015	5.52	16.6	6500	874	inactive
30	CG15011	DRSC08464	7.26	3.29	6291	6573	inactive
31	nmdyn-D6	DRSC20355	3.37	1.87	5967	5774	inactive
32	thoc7	DRSC08512	2.32	8.73	6470	6370	inactive
33	thoc7	DRSC29470	14.3	18.1	4509	2546	inactive
34	CG34155	DRSC13991	5.7	3.16	6651	6036	inactive
35	plh (pasang lhamu)	DRSC12294	4.52	14.8	5615	6395	inactive
36	SmydA-5 (SET and MYND domain containing, arthropod-specific, member 5)	DRSC04867	17.4	5.11	4469	6869	inactive
37	SmydA-5 (SET and MYND domain containing, arthropod-specific, member 5)	DRSC27930	13.9	19	5415	6059	inactive
38	CG13227	DRSC06347	3.76	18.3	6886	6929	inactive
39	CG13227	DRSC27529	11	10.8	6345	7049	inactive
40	CG1896	DRSC15397	1.44	1.21	6028	6108	inactive
41	Scamp	DRSC20286	4.8	3.06	6355	6794	inactive
42	Scamp	DRSC29752	2.39	4.57	6524	6106	inactive
43	sowah (sosondowah)	DRSC09186	0.48	0.31	6732	6467	inactive
44	sowah (sosondowah)	DRSC09758	18.2	14.9	4714	4165	inactive
45	Gmap (Golgi microtubule-associated protein)	DRSC19988	2.49	1.33	6068	6636	inactive
46	Gmap (Golgi microtubule-associated protein)	DRSC20057	7.36	6.51	4673	5687	inactive
47	Gmap (Golgi microtubule-associated protein)	DRSC29334	7.46	5.34	4815	4941	inactive
48	CG1628	DRSC18109	29.8	16.3	6618	6811	inactive
49	TM4SF (Transmembrane 4 superfamily)	DRSC04661	15.7	31.6	6591	5560	inactive
50	Gr64c (Gustatory receptor 64c)	DRSC08445	2.98	4.75	6608	5869	inactive
51	Gr64c (Gustatory receptor 64c)	DRSC27568	31.2	8.31	5867	6293	inactive
52	Tango9 (Transport and Golgi organization 9)	DRSC14173	24.8	15.2	3495	3729	inactive
53	CG11037	DRSC11631	8.44	9.07	6270	5933	inactive
54	robo2 (roundabout 2)	DRSC00377	2.2	6.26	6694	6450	inactive
55	robo2 (roundabout 2)	DRSC00378	12.2	8.49	6942	7008	inactive
56	robo2 (roundabout 2)	DRSC00686	13.3	12.2	7242	6596	inactive
57	robo2 (roundabout 2)	DRSC00691	3.21	11	6384	5185	inactive
58	CG31207	DRSC21886	7.47	16.7	3239	5677	inactive
59	Su(var)3-9 (Suppressor of variegation 3-9)	DRSC14484	6.67	32.4	6817	5571	inactive
60	Su(var)3-9 (Suppressor of variegation 3-9)	DRSC29176	20.1	9.77	5761	5617	inactive
61	Rexo5 (RNA exonuclease 5)	DRSC10981	5.47	13.9	6192	5581	inactive
62	UQCR-6.4 (Ubiquinol-cytochrome c reductase 6.4 kDa subunit)	DRSC06454	19.1	19.3	5652	6617	inactive
63	UQCR-6.4 (Ubiquinol-cytochrome c reductase 6.4 kDa subunit)	DRSC28738	23.5	33.1	5824	4746	inactive
64	Jheh3 (Juvenile hormone epoxide hydrolase 3)	DRSC06533	3.81	3.39	7122	6460	inactive
65	Jheh3 (Juvenile hormone epoxide hydrolase 3)	DRSC29140	14	19.3	2703	4543	inactive
66	Nlg4 (Neuroligin 4)	DRSC15109	3.18	0.56	6448	5668	inactive
67	Nlg4 (Neuroligin 4)	DRSC15700	3.11	3.11	6558	5764	inactive
68	Nlg4 (Neuroligin 4)	DRSC22243	5.88	13.2	7145	6444	inactive
69	Nlg4 (Neuroligin 4)	DRSC28785	25	11.3	5188	4564	inactive
70	Nlg4 (Neuroligin 4)	DRSC29761	5.63	7.55	6514	6452	inactive
71	Nlg4 (Neuroligin 4)	DRSC30022	11.3	7.24	1670	6578	inactive
72	Kdm4B (Lysine demethylase 4B)	DRSC06862	12.4	4.5	4729	6127	inactive
73	Kdm4B (Lysine demethylase 4B)	DRSC26702	2.38	3.83	6302	6089	inactive
74	Cht7 (Chitinase 7)	DRSC08538	3.86	7.45	6427	5516	inactive
75	Cht7 (Chitinase 7)	DRSC21783	3.07	1.88	6282	6345	inactive

Part of the list above, reduced to “cell count, replicate 2”:
Gr64c (Gustatory receptor 64c) [DRSC27568]: 6293
Tango9 (Transport and Golgi organization 9) [DRSC14173]: 3729
CG11037 [DRSC11631]: 5933
robo2 (roundabout 2) [DRSC00377]: 6450
robo2 (roundabout 2) [DRSC00378]: 7008
robo2 (roundabout 2) [DRSC00686]: 6596
robo2 (roundabout 2) [DRSC00691]: 5185
CG31207 [DRSC21886]: 5677
Su(var)3-9 (Suppressor of variegation 3-9) [DRSC14484]: 5571
Su(var)3-9 (Suppressor of variegation 3-9) [DRSC29176]: 5617
Rexo5 (RNA exonuclease 5) [DRSC10981]: 5581
UQCR-6.4 (Ubiquinol-cytochrome c reductase 6.4 kDa subunit) [DRSC06454]: 6617
